Compound potency records, mixed from different reports. Data source: NIAID ChemDB in PubChem.

All rows: whole-cell or culture tests; agent: Hepatitis C virus; method: replicon; measure: EC50

ECn is the concentration giving n% inhibition of infection, replication or growth.

C=C[C@@H]1C[C@]1(NC(=O)[C@@H]1C[C@@H](Oc2cc(-c3ccccc3)nc3cc(OC)ccc23)CN1C(=O)[C@@H](NC(=O)OC(C)(C)C)C(C)(C)C)C(=O)NS(=O)(=O)c1ccc(OC)cc1 ; cell line: Huh7 ; strain: 1b ; result: <0.05 µM
CNC(=O)c1c(-c2ccc(F)cc2)oc2cc(N(CC(O)c3ccc(F)cc3)S(C)(=O)=O)c(OC(C)C)cc12 ; cell line: Huh7 ; result: <1 µM
C=C[C@@H]1C[C@]1(NC(=O)[C@@H]1C[C@@H](Oc2cc(-c3ccccc3)nc3cc(OC)ccc23)CN1C(=O)[C@@H](NC(=O)OC(C)(C)C)C(C)(C)C)C(=O)NS(=O)(=O)c1ccc(NC(C)=O)cc1 ; cell line: Huh7 ; strain: 1b ; result: <0.5 µM
C=CC1CC1(NC(=O)[C@@H]1C[C@@H](OC(=O)Nc2cc(C)ccc2F)CN1C(=O)[C@@H](NC(=O)OC(C)(C)C)C(C)(C)C)C(=O)NS(=O)(=O)C1CC1 ; cell line: Huh7 ; strain: 1b ; result: 0.1–1 µM
C=C[C@H]1C[C@@]1(NC(=O)[C@@H]1C[C@@H](Oc2cc(-c3ccccc3)nc3cc(OC)ccc23)CN1C(=O)[C@@H](NC(=O)OC(C)(C)C)C(C)(C)C)C(=O)NS(=O)(=O)C1(CCOC)CC1 ; cell line: Huh7 ; strain: 1b ; result: <0.05 µM
CNC(=O)c1c(-c2ccc(F)cc2)oc2cc(N(C)S(C)(=O)=O)c(OCCn3nc(C)cc3C)cc12 ; cell line: Huh7 ; result: <1 µM
COc1nc(N)nc2c1ncn2[C@@H]1O[C@H](COP(=O)(N[C@@H](C)C(=O)OC(C)C)Oc2ccccc2)[C@@H](O)[C@@]1(C)F ; conditions: 63 d ; strain: 2a ; result: 0.073 µM
C=CC1CC1(NC(=O)[C@@H]1C[C@@H](Oc2cc(-c3ccccc3)nc3cc(OC)ccc23)CN1C(=O)[C@@H](NC(=O)OC(C)(C)C)C(C)(C)C)C(=O)NS(=O)(=O)C1(COC)CC1 ; cell line: Huh7 ; strain: 1b ; result: <0.05 µM
CNC(=O)c1c(-c2ccccc2)oc2cc(OC)c(OC)cc12 ; cell line: Huh7 ; result: <1 µM
C=CC1CC1(NC(=O)[C@@H]1C[C@@H](OC(=O)Nc2cc([N+](=O)[O-])ccc2C)CN1C(=O)[C@@H](NC(=O)OC(C)(C)C)C(C)(C)C)C(=O)NS(=O)(=O)C1CC1 ; cell line: Huh7 ; strain: 1b ; result: 1–10 µM
C=C[C@H]1C[C@@]1(NC(=O)[C@@H]1C[C@@H](Oc2cc(-c3ccccc3)nc3cc(OC)ccc23)CN1C(=O)[C@@H](NC(=O)OC(C)(C)C)C(C)C)C(=O)NS(=O)(=O)C1(CCOC)CC1 ; cell line: Huh7 ; strain: 1b ; result: <0.05 µM
C=CC1CC1(NC(=O)[C@@H]1C[C@@H](OC(=O)Nc2ccc(OC)cc2)CN1C(=O)[C@@H](NC(=O)OC(C)(C)C)C(C)(C)C)C(=O)NS(=O)(=O)C1CC1 ; cell line: Huh7 ; strain: 1b ; result: 1–10 µM
CNC(=O)c1c(-c2ccc(F)cc2)oc2cc(-c3cc(C)[nH]n3)c(OC(C)C)cc12 ; cell line: Huh7 ; result: <10 µM
COc1ccc2c(O[C@@H]3C[C@@H](C(=O)N[C@@]4(C(=O)NS(=O)(=O)C5(Cc6ccccc6)CC5)CC4C4CC4)N(C(=O)[C@@H](NC(=O)OC(C)(C)C)C(C)(C)C)C3)cc(-c3ccccc3)nc2c1 ; cell line: Huh7 ; strain: 1b ; result: 0.05–0.5 µM
C=CC1CC1(NC(=O)[C@@H]1C[C@@H](OC(=O)Nc2cc(C)ccc2-n2cccn2)CN1C(=O)[C@@H](NC(=O)OC(C)(C)C)C(C)(C)C)C(=O)NS(=O)(=O)C1CC1 ; cell line: Huh7 ; strain: 1b ; result: <0.1 µM
CNC(=O)c1c(-c2ccc(F)cc2)oc2cc(N(CCN3CCOCC3)S(C)(=O)=O)c(OC(C)C)cc12 ; cell line: Huh7 ; result: <1 µM
C=CCC1(S(=O)(=O)NC(=O)[C@]2(NC(=O)[C@@H]3C[C@@H](Oc4ccnc5cc(Cl)ccc45)CN3C(=O)[C@@H](NC(=O)OC3CCCC3)C(C)(C)C)C[C@@H]2C=C)CC1 ; cell line: Huh7 ; strain: 1b ; result: 0.05–0.5 µM
C=C[C@@H]1C[C@]1(NC(=O)[C@@H]1C[C@@H](Oc2cc(-c3ccccc3)nc3cc(OC)ccc23)CN1C(=O)[C@@H](NC(=O)OC(C)(C)C)C(C)(C)C)C(=O)NS(=O)(=O)c1ccc(F)cc1 ; cell line: Huh7 ; strain: 1b ; result: <0.5 µM
C=C[C@H]1C[C@@]1(NC(=O)[C@@H]1C[C@@H](Oc2cc(-c3ccccc3)nc3cc(OC)ccc23)CN1C(=O)[C@@H](NC(=O)OC(C)(C)C)C(C)(C)C)C(=O)NS(=O)(=O)C1(C(=C)C)CC1 ; cell line: Huh7 ; strain: 1b ; result: <0.05 µM
C=C[C@@H]1C[C@]1(NC(=O)[C@@H]1C[C@@H](Oc2cc(-c3ccccc3)nc3cc(OC)ccc23)CN1C(=O)[C@@H](NC(=O)OC(C)(C)C)C(C)C)C(=O)NS(=O)(=O)C(C)C ; cell line: Huh7 ; strain: 1b ; result: <0.05 µM
CNC(=O)c1c(-c2ccc(F)cc2)oc2cc(N3CCCC(O)C3)c(OC(C)C)cc12 ; cell line: Huh7 ; result: <10 µM
C=C[C@@H]1C[C@]1(NC(=O)[C@@H]1C[C@@H](Oc2cc(-c3ccccc3)nc3cc(OC)ccc23)CN1C(=O)[C@@H](NC(=O)COC)C(C)(C)C)C(=O)NS(=O)(=O)C1CC1 ; cell line: Huh7 ; strain: 1b ; result: <0.5 µM
C=CC1CC1(NC(=O)[C@@H]1C[C@@H](OC(=O)Nc2ccc3c(c2)OCO3)CN1C(=O)[C@@H](NC(=O)OC(C)(C)C)C(C)(C)C)C(=O)NS(=O)(=O)C1CC1 ; cell line: Huh7 ; strain: 1b ; result: >10 µM
CNC(=O)c1c(-c2ccc(F)cc2)oc2cc(N3CCSCC3)c(OC(C)C)cc12 ; cell line: Huh7 ; result: <1 µM
C=C[C@@H]1C[C@]1(NC(=O)[C@@H]1C[C@@H](Oc2cc(-c3ccccc3)nc3cc(OC)ccc23)CN1C(=O)[C@@H](NC(=O)OCC(C)(C)C)C(C)(C)C)C(=O)NS(=O)(=O)C1CC1 ; cell line: Huh7 ; strain: 1b ; result: <0.05 µM

Two numbers with a dash give a range or band. Lines come from different laboratories, so protocols vary.